Pooled drug test results. Numbers come from NIAID ChemDB, via PubChem.

Common to all: growth or infection tests; organism: Herpes simplex virus 1; endpoint: EC50

Rows are shuffled and stem from different studies. ECn: concentration that inhibits the pathogen or its effect by n%. Blank or dashed fields: not listed here.

smiles	read by	strain	cells	result
Nc1nc2c(ncn2COCCOP2(=O)OCc3ccccc3O2)c(=O)[nH]1	cytopathic effect	KOS	E6SM	1.3 µg/mL
Cc1cn([C@H]2O[C@@H](CO)C[C@H]2F)c(=O)nc1N			VERO	>100 µM
CCOC(=O)P(=O)(O)OCCOCn1cnc2c(=O)[nH]c(N)nc21	cytopathic effect	L2	VERO	330.7 µM
C[C@H]1O[C@@H](O[C@H]2CC[C@@]3(C)[C@H](CC[C@@H]4[C@@H]3CC[C@]3(C)[C@@H](C5=CC(=O)OC5)C(O)C[C@]43O)C2)C[C@H](O)[C@@H]1O[C@@H]1O[C@H](CO)[C@@H](O)[C@H](O)[C@H]1O	plaque count	29R	VERO	0.6 µM
CCOC(=O)P(=O)(OC)OC[C@H]1O[C@@H](n2cc(I)c(=O)[nH]c2=O)C[C@@H]1O	cytopathic effect	BRAND	VERO	>0.6 µM
O=c1c(O)c(-c2ccc(O)cc2)oc2cc(O)cc(O)c12			VERO	2 µg/mL
COc1ccc2c(c1)COP(=O)(OC[C@@H]1C=C[C@H](n3cnc4c(NC5CC5)nc(N)nc43)C1)O2	cytopathic effect	KOS	E6SM	6.4 µg/mL
O=C(O)P(=O)(O)O	cytopathic effect	KOS	VERO	38 µg/mL
Nc1ccn(C[C@@H](CO)OCP(=O)(O)O)c(=O)n1	cytopathic effect	PCV-resistant/B	HEL	0.36 µg/mL
Nc1nc2c(ncn2[C@H]2C=C[C@@H](CO)C2)c(=O)[nH]1	cytopathic effect	TK-deficient acyclovir-resistant	E6SM	32 µg/mL
Nc1ncnc2c1ncn2C[C@@H](CO)OCP(=O)(O)O	cytopathic effect	PCV-resistant/A	HEL	0.1 µg/mL
CC(=O)O[C@H]1[C@@H](O)C[C@H](O[C@H]2[C@@H](O)C[C@H](O[C@H]3[C@@H](O)C[C@H](O[C@H]4CC[C@@]5(C)[C@H](CC[C@@H]6[C@@H]5CC[C@]5(C)[C@@H](C7=CC(=O)OC7)CC[C@]65O)C4)O[C@@H]3C)O[C@@H]2C)O[C@@H]1C	plaque count	KOS	VERO	0.36 µM
[N-]=[N+]=CC(=O)CC[C@H](N)C(=O)O	plaque count	Clinical isolate	VERO	7.9 µM
CCOC(=O)CP(=O)(OC)OC[C@H]1O[C@@H](n2cc(CCCl)c(=O)[nH]c2=O)C[C@@H]1O	cytopathic effect	BRAND	VERO	>6.6 µM
Nc1nc(NC2CC2)c2ncn([C@H]3C=C[C@@H](COP4(=O)OCc5ccccc5O4)C3)c2n1	cytopathic effect	TK-deficient acyclovir-resistant	E6SM	10 µg/mL
CC(=O)O[C@H]1C[C@H](O[C@H]2[C@@H](O)C[C@H](O[C@H]3[C@@H](O)C[C@H](O[C@H]4CC[C@@]5(C)[C@H](CC[C@@H]6[C@@H]5CC[C@]5(C)[C@@H](C7=CC(=O)OC7)CC[C@]65O)C4)O[C@@H]3C)O[C@@H]2C)OC(C)[C@H]1O[C@@H]1O[C@H](CO)[C@@H](O)[C@H](O)[C@H]1O	plaque count	29R	VERO	0.39 µM
Cc1cccc2c1OP(=O)(OCCOCn1cnc3c(=O)[nH]c(N)nc31)OC2	cytopathic effect	KOS	E6SM	0.8 µg/mL
O=c1ccn([C@@H]2O[C@H](CO)C[C@@H]2F)c(=O)[nH]1			VERO	>100 µM
CC(C)=CCC/C(C)=C/CC/C(C)=C/Cc1c(O)cc(O)c2c(=O)cc(-c3ccc(O)cc3O)oc12	cytopathic effect	15577	VERO	>100 µg/mL
Nc1nc2c(ncn2CCC(CO)CO)c(=O)[nH]1	cytopathic effect	KOS	HEL	0.02 µg/mL
CNc1ncnc2c1ncn2[C@@H]1O[C@@H](CO)C[C@H]1F			VERO	>100 µM
CC(C)=CC1Oc2cc(O)ccc2-c2oc3c4c(cc(O)c3c(=O)c21)OC(C)(C)C=C4	cytopathic effect	15577	VERO	>100 µg/mL
O=c1ccn([C@@H]2O[C@@H](CO)C[C@H]2F)c(=O)[nH]1			VERO	>100 µM
Nc1ncnc2c1ncn2[C@@H]1O[C@H](CO)[C@@H](O)[C@@H]1O	plaque count			15 µM
CC1(C)C=Cc2c(cc(O)c3c2OC2c4ccc(O)cc4OC(C(C)(C)OO)CC2C3=O)O1	cytopathic effect	15577	VERO	>100 µg/mL
CO[C@H]1C[C@H](O[C@H]2CC[C@]3(C=O)[C@H]4CC[C@]5(C)[C@@H](C6=CC(=O)OC6)CC[C@]5(O)[C@H]4CC[C@]3(O)C2)O[C@H](C)[C@H]1O	plaque count	29R	VERO	0.13 µM
CC(C)=CCC/C(C)=C/Cc1cc(-c2cc(=O)c3c(O)cc(O)cc3o2)ccc1O	cytopathic effect	15577	VERO	>100 µg/mL
C[C@H]1O[C@@H](O[C@H]2CC[C@@]3(C)[C@H](CC[C@@H]4[C@@H]3C[C@@H](O)[C@]3(C)[C@@H](C5=CC(=O)OC5)CC[C@]43O)C2)C[C@H](O)[C@@H]1O[C@H]1C[C@H](O)[C@H](O[C@H]2C[C@H](O)[C@H](O[C@@H]3C[C@H](CO)[C@@H](O)[C@H](O)[C@H]3O)[C@@H](C)O2)[C@@H](C)O1	plaque count	29R	VERO	0.44 µM
Nc1nc(N)c2ncn(CCOCP(=O)(O)O)c2n1	cytopathic effect	KOS	HEL	2 µg/mL
Nc1ncnc2c1ncn2C[C@@H](CO)OCP(=O)(O)O	cytopathic effect	KOS	U138-MG	1.38 µg/mL
O=c1[nH]c(=O)n([C@H]2C[C@H](O)[C@@H](CO)O2)cc1/C=C/Br	cytopathic effect	Three isolates pooled	PRK	>1302 µM
O=C(O)P(=O)(O)O	plaque count	V8663	SIRC	<500 µM
Nc1nc2c(ncn2COCCO)c(=O)[nH]1	cytopathic effect	TK-	VERO	>44 µM
CO[C@H]1C[C@H](O[C@H]2[C@@H](O)C[C@H](O[C@H]3[C@@H](O)C[C@H](O[C@H]4CC[C@@]5(C)[C@H](CC[C@@H]6[C@@H]5CC[C@]5(C)[C@@H](C7=CC(=O)OC7)CC[C@]65O)C4)O[C@@H]3C)O[C@@H]2C)O[C@H](C)[C@H]1O	plaque count	29R	VERO	0.25 µM
O=c1[nH]c(=O)n([C@@H]2O[C@@H](CO)C[C@H]2F)cc1F			VERO	>100 µM
C[C@H]1O[C@@H](O[C@H]2[C@@H](O)C[C@H](O[C@H]3CC[C@@]4(C)[C@H](CC[C@@H]5[C@@H]4C[C@@H](O)[C@]4(C)[C@@H](C6=CC(=O)OC6)CC[C@]54O)C3)O[C@@H]2C)C[C@H](O)[C@@H]1O	plaque count	29R	VERO	0.22 µM
O=c1c(O)c(-c2ccc(O)c(O)c2)oc2cc(O)cc(O)c12		TK-	VERO	<60 µg/mL